Laboratory results from article PMC7797058, “Characterization of the first tetrameric transcription factor of the GntR superfamily with allosteric regulation from the bacterial pathogen Agrobacterium fabrum” (Nucleic Acids Research, 2020).
Protein sequences can lack the tags named with them.

Biological target: T1, Atu1419-H3A H141A,H192A,H214A (Agrobacterium fabrum C58) (UniProt A9CJ36)
T1 sequence (looked up): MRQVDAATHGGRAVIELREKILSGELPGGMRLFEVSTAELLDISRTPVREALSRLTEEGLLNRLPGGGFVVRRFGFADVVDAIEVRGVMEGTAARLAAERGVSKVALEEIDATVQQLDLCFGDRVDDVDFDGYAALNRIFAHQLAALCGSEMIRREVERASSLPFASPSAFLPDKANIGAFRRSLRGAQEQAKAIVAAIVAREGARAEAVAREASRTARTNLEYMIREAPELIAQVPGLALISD
Assay: EMSA
Conditions: EMSA: 50 mM Tris-HCl pH 8, 150 mM NaCl, 30 nM DNA, 30 min at room temperature; gel 6% or 12% PAGE in TBE at 4 C; recombinant protein; residues 1-244; protein details: C-terminal 6xHis; probe letters rebuilt from the primers and the genome

## CCATGTGTCGCAGCATCCACCTGCCTCATATCTCACCCCTTCCATCCACCGGAGCGCCGCCATCAACGACATCGAGCACGCTTATTCAAGCGACATGCCATGTATACATTAGCAACTCAAGCAACAGGACACAGAACTTCACCACCGACAGGACATGCCGCCTCCCTTTGAAATCGCACAGAAATCATAGGCTAAACCGACACCATCGCATCAACATGTATTCATTCAATCTAATTAAGATTAAATAATTCGTCAATATTCTTGGTTTTTCGCAAAATTTTGATTGAAGTAGCCGTTTCATGTATACATAATCAGGTCTCGCTAAGGGAGAAAGCGATGGGTTGGTCGAGTTTTTGGGATAATTCCGGTG (double strand) [Patu1418-1419]
  binding result: binds
